Source: US20260125356A1, “TREATMENT OF LEISHMANIASIS” (THE UNIVERSITY OF DURHAM, priority 2022, published 2026)

Tested on: HepG2 cells
Test: HepG2 cytotoxicity dose response assay
Settings: selectivity index HepG2 over L. major promastigotes
Procedure: Using a standard alamarBlue™ assay, activity and selectivity were assessed using L. major promastigotes and HepG2 cells, respectively.
All steps were carried out under sterile conditions. HepG2 cells were thawed rapidly into DMEM. Cells were grown at 37° C., 5% CO2 for >5 days in T-75 CytoOne® Flask, TC-Treated, Vented flasks (Starlab) in a Sanyo MCO-18M incubator. […] The trypsin was deactivated by addition of DMEM. The cells were homogenised and 5 mL of cell culture was added to 20 mL fresh DMEM. Cells were split 1:4 every 3 days. Frozen stocks were prepared in the same way as the passage, but resuspended into DMEM with 10% DMSO, aliquoted into cryovials (Starlab) and cooled slowly to −150° C. for long term storage.
All steps were carried out under sterile conditions. 80-100% confluent HepG2 were plated into Corning™ Costar™ 96-Well Flat-Bottom Microplates (Fisher Scientific) by adding 200 μL of a homogenous dispersion of cells at a concentration of 0.6×10^5 cells mL^−1 before incubation at 37° C., 5% CO2 overnight. […] Cell-viability was determined using a BioTek™ FLx800 microplate reader with Gen5® 1.08 data analysis software (BioTek) by monitoring fluorescence emission (Nex 560/hem 590 nm). […]

SMILES | S.I. (HepG2/L. major)
CNC(=O)c1ccsc1N(C)C(=O)c1ccc([N+](=O)[O-])s1 [Compound 48, N-methyl-2-(N-methyl-5′-nitrothiophene-2′-amido)thiophene-3-carboxamide] | 4.0 ± 0.9
CNC(=O)c1ccsc1/N=C/c1ccc([N+](=O)[O-])s1 [Compound 50, N-methyl-2-[(E)-[(5′-nitrothiophen-2′-yl)methylidene]amino]thiophene-3-carboxamide] | 21.9 ± 0.8
